Compound potency records, mixed from different reports. Data source: NIAID ChemDB in PubChem.

Common to all: toxicity to cultured cells; read-out: CC50

An empty or dashed field is not shown.

smiles | cells | read by | value
COC1=NC=C[C@@H]2O[C@@H]3SC(OC)=NC=C[C@@H]3O[C@@H]2S1 | McCoy | sulforhodamine | >100 µg/mL
CCOC(=O)CCCCCOc1cccc(CN(C(=O)c2ccc(-c3cccc(-c4ccccc4)c3)cc2)C(C)C)c1 | HEK 293 | - | >20 µM
Clc1ccc([C@@H](CCn2ccnc2)Oc2ccccc2)cc1 | Human histiocytic lymphoma U937 cells | - | 209 µM
Cn1c2c(c(=O)n(C)c1=O)S[C@H]1[C@@H](O2)O[C@H](COc2ccccc2)[C@@H](OCc2ccccc2)[C@@H]1OCc1ccccc1 | PBM | - | >100 µM
CN1CCCC12C1CC3CC(C1)CC2C3 | HEF | - | >50 µg/mL
C/C(=C\Cn1cnc2c(Cl)ncnc21)CO | CCL18 | - | >100 µg/mL
CNC1CC12C1CC3CC(C1)CC2C3 | HEF | - | 90 µg/mL
COc1cnc(CS(=O)c2nc3ccccc3[nH]2)c(C)c1-n1cccc1 | HEK293T | MTT | 42 µM
C/C(=C\Cn1cnc2c(N)ncnc21)CO | CCL18 | - | >100 µg/mL
CS[C@@]12CC3C(=O)CC[C@H](O)[C@H]3N1C(=O)[C@@]13C[C@H]4C(=O)C[C@@H](S1)[C@H](O)[C@H]4N3C2=O | 293T | luminescence | >100 µM
C1CNC2(C1)C1CC3CC(C1)CC2C3 | HEF | - | >50 µg/mL
O=C(O)c1ccc(N2C(=O)c3cccc([N+](=O)[O-])c3C2=O)cc1O | L929 | visual reading / absorbance | >100 µg/mL
Cc1cc(NC(=O)c2c(C)c(C(=O)C(=O)NC3(CO)CCN(C(=O)c4cnn(C)c4)CC3)n(C)c2C)ccc1F | HepG2 | MTT | >30 µM
O=C(O)P(=O)(O)O | CBMC | - | >200 µg/mL
Nc1nc2c(ncn2C/C=C(/CO)c2ccccc2)c(=O)[nH]1 | CCL18 | - | >100 µg/mL
CCc1cc2c(N)c(C(N)=O)sc2nc1C | CEM-SS | XTT | 40 µM
COc1ccccc1-c1cc(=O)c2c(OCc3ccccc3)cccc2o1 | CHO | MTS / absorbance | 25.5 µM
CC(C)c1nnc2c3ccccc3c(N3CCc4ccccc4C3)nn12 | PBMC | - | 0.96 µM
Nc1nc(=S)n([C@@H]2O[C@H](CO)[C@@H](O)[C@@H]2O)cc1Br | RPMI8226 | - | >296 µM
Cc1c(OCCOCCOCCOc2ccnc(CS(=O)c3nc4ccccc4[nH]3)c2C)ccnc1CSc1nc2ccccc2[nH]1 | HEK293T | MTT | 1 µM
CC(=O)c1cccc(-c2ccc(C(=O)N(Cc3cccc(OCCCCCC(=O)OC(=O)O)c3)C(C)C)cc2)c1 | HEK 293 | - | >20 µM
Cc1cc(OCc2ccc(-c3cccc(C#N)c3)cc2)cnc1CS(=O)c1nc2ccccc2[nH]1 | HEK293T | MTT | 5 µM
COc1cc(OC)c(-c2oc3ccccc3c(=O)c2O)cc1Br | CHO | MTS / absorbance | 25.5 µM
CC(C)c1nc(CN(C)C(=O)N[C@H](C(=O)N[C@@H](Cc2ccccc2)C[C@H](O)[C@H](Cc2ccccc2)NC(=O)OCc2cncs2)C(C)C)cs1 | EPG85-257P | - | 80 µM
Nc1nc(=S)n([C@@H]2O[C@H](CO)[C@@H](O)[C@@H]2O)cc1F | RPMI8226 | - | 1098 µM
COc1cc2c(cc1N)CN(c1nn3c(C4CC4)nnc3c3ccccc13)CC2 | PBMC | - | 9.13–13 µM
CO[C@@]1(Cc2ccccc2)NC(=O)[C@](O)(Cc2ccccc2)NC1=O | 293T | luminescence | >100 µM
CC(=O)Nc1ccc2c(c1)CN(c1nn3c(C)nnc3c3ccccc13)CC2 | PBMC | - | 79.2 µM
Cc1cc(OCC(F)(F)F)cnc1CS(=O)c1nc2ccccc2[nH]1 | HEK293T | MTT | 50 µM
CCOc1ccc(Br)cc1-c1oc2ccccc2c(=O)c1O | CHO | MTS / absorbance | 25.5 µM
C[C@H]1COc2c(N3CCSCC3)c(F)cc3c(=O)c(C(=O)O)cn1c23 | Mammalian Vero cells | MTT | >172 µM
CCCCSc1n[nH]c(-c2ccc([N+](=O)[O-])c(C)c2)n1 | Panc-1 | - | >100 µg/mL
CC(=O)O[C@@H]1[C@@H](OC(C)=O)[C@H](C)O[C@@H]2Oc3c(c(=O)n(C)c(=O)n3C)S[C@@H]21 | PBM | - | 46.2 µM
C/C(=C\Cn1cnc2c(=O)[nH]cnc21)CO | CCL18 | - | >100 µg/mL
Cc1cc(NC(=O)c2c(C)c(C(=O)C(=O)NC3CCC(O)CC3)n(C)c2-c2nccs2)ccc1F | HepG2 | MTT | >30 µM
Nc1nc2ncn(/C=C3\C(F)C3(CO)CO)c2c(=O)[nH]1 | Akata | - | >100 µM
CCCCC(=O)OC1CC(OC(C)C(C)C(O)C(C)C(O)C(C)C2OC(=O)/C=C/CC(O)CC(O)CC(O)CCC(C)C(O)C[C@@]3(O)O[C@H](CC(O)CC(OC(=O)CC(=O)O)CCCC(O)C4OC4C2C)C[C@H](O)[C@H]3O)OC(C)C1O | KELA | - | >100 µg/mL
Cn1cc(C(=O)NCc2ccc(Cl)cc2)c(=O)c2cc(CN3CCOCC3)ccc21 | REF-5 | - | >100 µM
Nc1ccn(C[C@H]2COP(=O)(O)CO2)c(=O)n1 | CBMC | - | 65.67 µg/mL
Nc1nc(=S)n([C@@H]2O[C@H](CO)[C@@H](O)[C@@H]2O)cc1Cl | RPMI8226 | - | >341 µM
CC(C)N(Cc1cccc(OCCCCCC(=O)OC(=O)O)c1)C(=O)c1ccc(-c2cccc(O)c2)cc1 | HEK 293 | - | >20 µM
C#CCSc1n[nH]c(-c2ccc([N+](=O)[O-])c(C)c2)n1 | Panc-1 | - | >100 µg/mL
Cc1cc(NC(=O)c2c(C)c(C(=O)C(=O)N[C@@H]3CC[C@H](O)CC3(C)C)n(C)c2C)ccc1F | HepG2 | MTT | >30 µM
C=CCNc1nc(N)nc2c1ncn2/C=C1/C[C@@H]1CO | BSCL-1 | - | >184 µM
COc1ccc2c(c1)CN(c1nn3c(C(C)C)nnc3c3ccccc13)CC2 | PBMC | - | 23.4 µM
Cc1cc(NC(=O)c2c(C)c(C(=O)C(=O)NC3CCC(O)CC3)n(C)c2-c2ccsc2)ccc1F | HepG2 | MTT | 5–30 µM
COC(=O)c1ccc(OCCCOc2ccnc(CSc3nc4ccccc4[nH]3)c2C)cc1OC | HEK293T | MTT | 80 µM
CCc1c(C(=O)Nc2ccc(F)c(C)c2)c(C)n(C)c1C(=O)C(=O)NC1(C)CCC(O)CC1 | HepG2 | MTT | >30 µM
COc1ccccc1-c1cc(=O)c2c(O)cccc2o1 | CHO | MTS / absorbance | 25.5 µM
CS[C@@]12C[C@H]3C(=O)CC[C@H](O)[C@H]3N1C(=O)[C@]1(SC)CC3=CC=C[C@H](O)[C@H]3N1C2=O | 293T | luminescence | >100 µM
CN(C)C1CC12C1CC3CC(C1)CC2C3 | HEF | - | >200 µg/mL
Nc1nc(=S)n([C@H]2C[C@H](O)[C@@H](CO)O2)cc1Cl | RPMI8226 | - | 334 µM
O=c1[nH]c(=O)n([C@H]2CS[C@@H](CO)O2)cc1I | H-1 | - | >100 µM
COc1cc2c(cc1OC)CN(c1c(F)cc3c(=O)c(C(=O)O)cn4c3c1OCC4C)CC2 | Mammalian Vero cells | MTT | >138 µM
Nc1ccn(C[C@@H](CO)OCP(=O)(O)O)c(=O)n1 | BSCL-1 | - | >154 µM
CCOC(=O)CCCCCOc1cccc(CN(C(=O)c2ccc(-c3cccc(F)c3)cc2)C(C)C)c1 | RAJI | - | >20 µM
C[C@H]1COc2c(N3CCC(O)(c4ccc(Cl)cc4)CC3)c(F)c([N+](=O)[O-])c3c(=O)c(C(=O)O)cn1c23 | Vero mammalian cells | MTT | 60.35 µM
NC[C@H]1O[C@H](O[C@H]2[C@H](O)[C@@H](O[C@H]3O[C@H](CO)[C@@H](O)[C@H](N)[C@H]3O)[C@H](N)C[C@@H]2N)[C@H](O)[C@@H](O)[C@@H]1O | J774 macrophages | resazurin / fluorescence | 813 µg/mL
Nc1nc2c(ncn2COC(CO)CO)c(=O)[nH]1 | CBMC | - | >200 µg/mL
Nc1nc(=S)n([C@H]2C[C@H](O)[C@@H](CO)O2)cc1Br | RPMI8226 | - | 293 µM
CCSc1n[nH]c(-c2ccc(Cl)cc2C)n1 | Panc-1 | - | >100 µg/mL
COc1cnc(CS(=O)c2nc3ccc(C)cc3[nH]2)c(C)c1OC | HEK293T | MTT | 75 µM
OC/C(=C/Cn1cnc2c(Cl)ncnc21)c1ccccc1 | CCL18 | - | >100 µg/mL
Cc1nnc2c3ccccc3c(N3CCc4ncccc4C3)nn12 | PBMC | - | 3.37 µM
CCCCCCCCCCCCCCCCCCOP(=O)(OCCCC)OP(=O)(O)OP(=O)(O)OP(=O)(O)OC[C@@H]1C=C[C@H](n2cc(C)c(=O)[nH]c2=O)O1 | CD4+ T-cell | MTT | 30 µM
Fc1ccc(-n2ncc3c(NCCc4c[nH]c5ccccc45)ncnc32)c(F)c1 | HUH 9B | - | 19 µM
CCCSc1nc(N)nc2c1ncn2/C=C1/C[C@@H]1CO | MEF | - | >343 µM
Cc1cc(NC(=O)c2c(C)c(C(=O)C(=O)NC3(C)CCC(O)CC3)n(C)c2-c2ccsc2)ccc1F | HepG2 | MTT | >30 µM
Nc1nc2c(ncn2COCCO)c(=O)[nH]1 | Macrophages | - | >20 µM
Cc1cc(NC(=O)c2c(C)c(C(=O)C(=O)N[C@@H]3CN[C@H](C(=O)O)C3)n(C)c2C)ccc1F | HepG2 | MTT | >30 µM
Cn1c2c(c(=O)n(C)c1=O)S[C@H]1[C@@H](O2)O[C@H](CO)[C@@H](O)[C@@H]1O | PBM | - | >100 µM
COc1cc2c(cc1OC)C(C)=NCC2 | HEK 293 | - | <7.5 µM
Cc1cc(COc2ccc(-c3cccc(C#N)c3)cc2)cnc1CS(=O)c1nc2ccccc2[nH]1 | HEK293T | MTT | 6 µM
Nc1nc2c(ncn2COCCO)c(=O)[nH]1 | H-1 | - | 1000 µM
CCOC(=O)CCCCCOc1cccc(CN(C(=O)c2ccc(-c3cccc(C(F)(F)F)c3)cc2)C(C)C)c1 | HepG2 | - | >20 µM
Cc1ccc(-n2ncc3c(NC(=O)Nc4ccc(C(F)(F)F)cc4)ncnc32)c(C)c1 | HUH 9B | - | >50 µM
CC(=O)N1CC[C@H](NC(=O)C(=O)c2c(C)c(C(=O)Nc3ccc(F)c(C)c3)c(C)n2C)C[C@@H]1C | HepG2 | MTT | >30 µM
Cc1ccc(-n2ncc3c(NC(=O)Nc4ccc(Br)cc4)ncnc32)c(C)c1 | HUH 9B | - | 36 µM
Nc1ncnc2c1ncn2CC=C(CO)CO | CCL18 | - | >100 µg/mL
CCCOc1nc(N)nc2c1ncn2/C=C1/C[C@@H]1CO | BSCL-1 | - | >182 µM
Cc1nnc2c3ccccc3c(N3Cc4ccccc4C(C)(C)C3)nn12 | PBMC | - | 57.7 µM
Nc1nc(NC2CC2)c2ncn(/C=C3/C[C@@H]3CO)c2n1 | BSCL-1 | - | 110 µM
Nc1nc(N)c2ncn(CCOCP(=O)(O)O)c2n1 | CBMC | - | 20.17 µg/mL
COC1=CCC(C2C3(CO)C4N(Cc5ccc(OC)cc5)C5C6(CO)C(c7ccc(OC)cc7)C4(CO)C3N(Cc3ccc(OC)cc3)C6C25CO)C=C1 | EPG85-257P | - | 80 µM
FC(F)(F)c1cccc2c1CCN(c1nn3c(C4CC4)nnc3c3ccccc13)C2 | PBMC | - | 49.4 µM
COc1ccc(Br)cc1-c1cc(=O)c2ccccc2o1 | CHO | MTS / absorbance | 25.5 µM
CC(C)N(Cc1cccc(OCCCCCC(=O)OC(=O)O)c1)C(=O)c1ccc(-c2ccc3c(c2)OCCO3)cc1 | KEP293 | - | >20 µM
NS(=O)(=O)c1ccc(CCNc2ncnc3c2cnn3-c2ccccc2Cl)cc1 | HUH 9B | - | >50 µM
N=C(N)c1ccnc(-c2cccc(-c3cc(C(=N)N)ccn3)c2)c1 | L6 rat myoblasts | - | >150 µM
Nc1ccc2c(c1)CN(c1nn3c(-c4cccs4)nnc3c3ccccc13)CC2 | PBMC | - | 4.3 µM
CC(=O)O[C@H]1[C@@H](OC(C)=O)[C@@H](CO[Si](c2ccccc2)(c2ccccc2)C(C)(C)C)O[C@@H](O[C@H]2[C@H](OC(C)=O)[C@H]3Sc4c(n(C)c(=O)n(C)c4=O)O[C@H]3O[C@@H]2CO[Si](c2ccccc2)(c2ccccc2)C(C)(C)C)[C@@H]1OC(C)=O | PBM | - | 100 µM
CC1COc2c(N3CCN(C(=O)c4ccco4)CC3)c(F)c([N+](=O)[O-])c3c(=O)c(C(=O)O)cn1c23 | Mammalian Vero cells | MTT | 64.25 µM

The last 10 rows once more:

smiles,cells,read by,value
Nc1nc(N)c2ncn(CCOCP(=O)(O)O)c2n1,CBMC,-,20.17 µg/mL
COC1=CCC(C2C3(CO)C4N(Cc5ccc(OC)cc5)C5C6(CO)C(c7ccc(OC)cc7)C4(CO)C3N(Cc3ccc(OC)cc3)C6C25CO)C=C1,EPG85-257P,-,80 µM
FC(F)(F)c1cccc2c1CCN(c1nn3c(C4CC4)nnc3c3ccccc13)C2,PBMC,-,49.4 µM
COc1ccc(Br)cc1-c1cc(=O)c2ccccc2o1,CHO,MTS / absorbance,25.5 µM
CC(C)N(Cc1cccc(OCCCCCC(=O)OC(=O)O)c1)C(=O)c1ccc(-c2ccc3c(c2)OCCO3)cc1,KEP293,-,>20 µM
NS(=O)(=O)c1ccc(CCNc2ncnc3c2cnn3-c2ccccc2Cl)cc1,HUH 9B,-,>50 µM
N=C(N)c1ccnc(-c2cccc(-c3cc(C(=N)N)ccn3)c2)c1,L6 rat myoblasts,-,>150 µM
Nc1ccc2c(c1)CN(c1nn3c(-c4cccs4)nnc3c3ccccc13)CC2,PBMC,-,4.3 µM
CC(=O)O[C@H]1[C@@H](OC(C)=O)[C@@H](CO[Si](c2ccccc2)(c2ccccc2)C(C)(C)C)O[C@@H](O[C@H]2[C@H](OC(C)=O)[C@H]3Sc4c(n(C)c(=O)n(C)c4=O)O[C@H]3O[C@@H]2CO[Si](c2ccccc2)(c2ccccc2)C(C)(C)C)[C@@H]1OC(C)=O,PBM,-,100 µM
CC1COc2c(N3CCN(C(=O)c4ccco4)CC3)c(F)c([N+](=O)[O-])c3c(=O)c(C(=O)O)cn1c23,Mammalian Vero cells,MTT,64.25 µM

Lines come from different laboratories, so protocols vary. a–b is a range or a potency band. CCn: concentration that lowers growth or viability of the cells by n%.